# Test results published in patent US20230303666A1, “Cell-free antibody engineering platform and neutralizing antibodies for sars-cov-2” (published 2023).
# Target: SARS-CoV-2 S deleted of the C-terminal 27 a.a. and fused to the NRVRQGYS sequence of HIV-1 (pCMV-SAR (SARS-CoV-2) (UniProt P0DTC2))
# Assay: cell-based or functional assay
substance,measurement,value
VHH72,"Pseudovirus neutralization % inhibition, 5 nM VHH, replicate 1",6.09%
same,"Pseudovirus neutralization % inhibition, 5 nM VHH, replicate 2",2.67%
same,"Pseudovirus neutralization % inhibition, 50 nM VHH, replicate 1",4.12%
same,"Pseudovirus neutralization % inhibition, 50 nM VHH, replicate 2",3.97%
same,"Pseudovirus neutralization % inhibition, 500 nM VHH, replicate 1",81.4%
same,"Pseudovirus neutralization % inhibition, 500 nM VHH, replicate 2",49.6%
